The values below are quoted from earlier work in PubChem BioAssay AID977610.

Test in all cases: PubChem AID 977610
Data set [1] has as its target B/Perth Neuraminidase D197E mutant. The settings on record: PDB protein-ligand complexes, literature Ki; protein: B/Perth Neuraminidase D197E mutant; PDB entry 3K3A.
The target of a further data set is HIV-1 protease I84V. The settings on record: PDB protein-ligand complexes, literature Ki; protein: HIV-1 protease I84V; PDB entry 1MES.
In the next data set the target is HIV-1 protease V82F. The settings on record: PDB protein-ligand complexes, literature Ki; protein: HIV-1 protease V82F; PDB entry 1MET.
The next data set has as its target HIV-1 protease v82f i84v. The settings on record: PDB protein-ligand complexes, literature Ki; protein: HIV-1 protease v82f i84v; PDB entry 1MEU.
In data set [2] the target is HIV PROTEASE RETROPEPSIN 3 (I47A). The settings on record: PDB protein-ligand complexes, literature Ki; protein: HIV PROTEASE RETROPEPSIN 3 (I47A); PDB entry 2QHC.

What is called Ki is the dissociation constant of the complex between target and ligand, obtained from inhibition or displacement. Turning to `CCC(CC)O[C@@H]1C=C(C(=O)O)C[C@H](N)[C@H]1NC(C)=O`, the Ki in data set [1] was 84 nM. As for `O=C1N(Cc2ccc(CO)cc2)[C@H](Cc2ccccc2)[C@H](O)[C@@H](O)[C@@H](Cc2ccccc2)N1Cc1ccc(CO)cc1`, the Ki is 20 nM at HIV-1 protease I84V, 0.4 nM on HIV-1 protease V82F and 800 nM at HIV-1 protease v82f i84v.

For `Cc1cccc(C)c1OCC(=O)N[C@@H](Cc1ccccc1)[C@@H](O)C[C@H](Cc1ccccc1)NC(=O)[C@H](C(C)C)N1CCCNC1=O`, the Ki in data set [2] is 1.1 nM.
